# Potato spindle tuber viroid, stem 15: variant abundance in plants

Values reported by Wu et al. 2024 (doi:10.1371/journal.ppat.1012142).

The pool varies stem 15 of the PSTVd intermediate strain in the pattern CUGGAGCGAUNGNNUNNG; wild type is CUGGAGCGAUCGCUUCGG (upper and lower strand joined, each 5' to 3', the first 9 letters being the upper strand).

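A pool of all variants was put on leaves of three Nicotiana benthamiana plants. Progeny were sequenced from the inoculated region (day 5), the margin of the inoculated leaf (day 10) and systemic leaves (day 12).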

Values are reads per thousand in the sample; higher means more abundant, 0 means not found.
Each site shows the three plants.
"Pool" is the share in the plasmid pool used as inoculum, on the same scale.
The inoculated region was read from the minus strand, the other sites from the plus strand.

sequence | pool | inoculated region | leaf margin | systemic leaves
CUGGAGCGAUUGCCUAAG | 0.905 | 2.35 0.796 1.66 | 0.517 0.0818 0.872 | 0 0 0
CUGGAGCGAUUGCCUACG | 0.646 | 0.430 0.251 0.261 | 0.0207 0.0273 0.0476 | 0 0 0
CUGGAGCGAUUGCCUAGG | 1.08 | 0.352 1.24 0.354 | 0.103 0.0545 0.0159 | 0 0 0
CUGGAGCGAUUGCCUAUG | 0.760 | 0.235 0.230 0.316 | 0 0.0273 0.0317 | 0 0 0
CUGGAGCGAUUGCCUCAG | 1.03 | 2.04 0.859 1.21 | 0.600 0.0545 0.999 | 1.07 0.554 0
CUGGAGCGAUUGCCUCCG | 0.970 | 0.254 0.293 0.205 | 0.0620 0.0818 0.0159 | 0 0 0
CUGGAGCGAUUGCCUCGG | 0.889 | 0.430 0.188 0.316 | 0.145 0.0545 0 | 0 0 0
CUGGAGCGAUUGCCUCUG | 0.937 | 0.333 0.126 0.354 | 0.0414 0.0545 0 | 0 0 0
CUGGAGCGAUUGCCUGAG | 0.954 | 1.98 0.963 1.25 | 0.579 0.0545 0.983 | 0.733 0 0
CUGGAGCGAUUGCCUGCG | 0.695 | 0.333 0.230 0.223 | 0.0414 0.0273 0.0159 | 0.693 0 0
CUGGAGCGAUUGCCUGGG | 0.986 | 0.333 0.251 0.279 | 0.0620 0 0.0159 | 0 0 0
CUGGAGCGAUUGCCUGUG | 0.889 | 0.294 0.230 0.354 | 0.0620 0.0545 0 | 0 0 0
CUGGAGCGAUUGCCUUAG | 0.840 | 3.84 1.95 2.59 | 1.18 0.927 1.65 | 1.58 1.24 0.857
CUGGAGCGAUUGCCUUCG | 0.824 | 1.68 1.26 1.45 | 0.0414 0.0545 0.840 | 0 0 0
CUGGAGCGAUUGCCUUGG | 1.13 | 2.39 1.21 1.75 | 0.641 0.572 1.17 | 0.911 0.731 0
CUGGAGCGAUUGCCUUUG | 0.808 | 1.88 1.11 1.56 | 0.103 0 0.919 | 0 0 0
CUGGAGCGAUUGCGUAAG | 1.03 | 0.430 1.13 0.261 | 0.0620 0.0273 0.0634 | 0 0 0
CUGGAGCGAUUGCGUACG | 0.663 | 0.352 0.293 0.354 | 0.0827 0 0.0159 | 0 0 0
CUGGAGCGAUUGCGUAGG | 0.986 | 0.254 0.168 0.354 | 0 0.0818 0.0317 | 0 0 0
CUGGAGCGAUUGCGUAUG | 0.824 | 0.372 0.230 0.261 | 0.0620 0 0 | 0 0 0
CUGGAGCGAUUGCGUCAG | 0.937 | 0.333 0.272 0.279 | 0 0 0 | 0 0 0
CUGGAGCGAUUGCGUCCG | 0.905 | 0.235 0.147 0.149 | 0.103 0.0273 0.0159 | 0 0 0
CUGGAGCGAUUGCGUCGG | 0.824 | 0.372 0.188 0.223 | 0.0207 0 0 | 0 0 0
CUGGAGCGAUUGCGUCUG | 0.566 | 0.196 0.440 0.372 | 0.0414 0.0545 0.0317 | 0 0 0
CUGGAGCGAUUGCGUGAG | 0.743 | 0.294 0.272 0.335 | 0.0207 0 0.0317 | 0 0 0
CUGGAGCGAUUGCGUGCG | 0.857 | 0.391 0.293 0.168 | 0.0620 0.0273 0 | 0 0 0
CUGGAGCGAUUGCGUGGG | 2.34 | 1.41 1.11 1.62 | 0.0620 0.0273 0.0317 | 0 0 0.0199
CUGGAGCGAUUGCGUGUG | 0.792 | 0.274 0.293 0.261 | 0.0414 0.0273 0.0159 | 0 0 0
CUGGAGCGAUUGCGUUAG | 0.776 | 2.13 1.28 1.56 | 0.0414 0.0273 0.0159 | 0 0 0
CUGGAGCGAUUGCGUUCG | 0.808 | 0.333 0.272 0.279 | 0 0 0.0159 | 0 0 0
CUGGAGCGAUUGCGUUGG | 0.695 | 0.352 0.272 0.335 | 0.124 0 0.0159 | 1.60 0 0
CUGGAGCGAUUGCGUUUG | 0.776 | 0.372 0.168 0.168 | 0.0827 0.0273 0.0317 | 0 0 0
CUGGAGCGAUUGCUUAAG | 0.905 | 0.196 0.188 0.186 | 0.0207 0 0 | 0 0 0
CUGGAGCGAUUGCUUACG | 0.840 | 0.215 0.188 0.521 | 0.103 0.0818 0.0476 | 0 0 0
CUGGAGCGAUUGCUUAGG | 2.15 | 1.39 1.26 1.04 | 0.0620 0 0.0634 | 0 0 0
CUGGAGCGAUUGCUUAUG | 0.824 | 0.411 0.314 0.391 | 0.0414 0.0273 0.0317 | 0 0 0
CUGGAGCGAUUGCUUCAG | 0.840 | 0.254 0.356 0.279 | 0.103 0.0273 0.0159 | 0 0 0
CUGGAGCGAUUGCUUCCG | 1.05 | 0.352 0.230 0.279 | 0.0207 0 0.0317 | 0 0 0
CUGGAGCGAUUGCUUCGG | 1.15 | 33.1 16.4 49.7 | 11.1 20.5 12.9 | 19.7 11.4 9.11
CUGGAGCGAUUGCUUCUG | 0.873 | 0.235 0.293 0.261 | 0.0827 0.0273 0 | 0 0 0
CUGGAGCGAUUGCUUGAG | 1.62 | 0.841 1.49 0.875 | 0.124 0.0273 0.0159 | 0 0 0
CUGGAGCGAUUGCUUGCG | 0.743 | 0.294 0.147 0.335 | 0.0620 0.0273 0.0317 | 0 0 0
CUGGAGCGAUUGCUUGGG | 1.18 | 0.841 0.607 0.596 | 0.0207 0.0545 0.0317 | 0 0 0.0399
CUGGAGCGAUUGCUUGUG | 1.00 | 0.294 0.293 0.558 | 0.0827 0 0.0476 | 0 0 0
CUGGAGCGAUUGCUUUAG | 2.41 | 5.19 3.35 3.20 | 0.765 0.545 0.761 | 1.05 0.731 0.379

2 of these entries, quoted again:

sequence,pool,inoculated region,leaf margin,systemic leaves
CUGGAGCGAUUGCUUAGG,2.15,1.39 1.26 1.04,0.0620 0 0.0634,0 0 0
CUGGAGCGAUUGCGUCCG,0.905,0.235 0.147 0.149,0.103 0.0273 0.0159,0 0 0

With 36,693-63,082 reads a sample, very low values are single reads.
Wild type was 10.2 per thousand in the pool and the most common sequence in every sample (inoculated region 285, 367, 312; leaf margin 785, 865, 782; systemic leaves 854, 898, 915).
Sequences that differ at fixed positions probably stem from PCR or sequencing errors, and defective variants can be carried along by functional ones.